Measured values taken from PubChem BioAssay AID588778 (Southern Research Institute, 2011).
This is a selection; strong and weak results do not stand in their true shares. The source made the active and inactive calls. No rule for the calls is given here.

assay: Vibrio cholerae motility inhibitors, OD read-out (AID 588778); conditions: hits give high values, concentration not given here

Compound | inhibition
COc1ccc(OCC(=O)OC2CN3CCC2CC3)cc1 (configuration not stated) | inactive: 14.6%
Cc1cccc(C(=O)OC2CN3CCC2CC3)c1 (configuration not stated) | inactive: 3.42%
